# Experimental data from PubChem BioAssay AID504832 (National Center for Advancing Translational Sciences (NCATS), 2011).
# Only a part is listed here, and it is no random draw. Inconclusive results are not listed. Activity calls are given as the source filed them. The call rests on the fitted dose curve; in most records, active means well fitted inhibition curve with a large enough effect; inconclusive means small, poorly fitted or top-dose-only effect, or another doubt; inactive means no such curve, though single readings can be large or run the other way.
# Experiment: Primary qHTS for delayed death inhibitors of the malarial parasite plastid, 48 hour incubation
# Settings: P. falciparum luciferase growth in erythrocytes; series mostly up to 28.7 µM; activity change, negative = inhibition: at the top concentration
# From the text: The goal of this screen is to discover new antimalarial compounds that act by inhibiting the development of the apicoplast in the malarial parasite Plasmodium falciparum. The biochemical processes that make this organelle essential for erythrocytic stage parasites are not well understood. However, antibiotics such as azithromycin and tetracycline, which target the apicoplast translational machinery, have a potent antimalarial effect.
# We have developed a cell-based assay that measures parasite growth based on the expression of an integrated copy of a firefly luciferase reporter. To detect small molecules that cause this "delayed death" phenotype, erythrocytes infected with the luciferase-expressing parasites were incubated with compounds for either one or two generations, corresponding to 48 and 96 hours, respectively. Compounds that inhibit parasite growth in the second generation, but not the first, should be enriched in antimalarials that target the apicoplast. Growth inhibition is detected by a decrease in luciferase activity.
# Assay Provider: David Fidock and Eric Ekland, Columbia University
# Keywords: NIH Roadmap, MLPCN, MLI, MLSMR, qHTS, NCGC, qHTS, malaria, luciferase, viability
# Four microliters of culture medium (RPMI 1640 with 0.5% w/v Albumax (GIBCO), 24 mM sodium bicarbonate and 10 ug/mL gentamycin) were dispensed by a Multi-drop Combi into white solid 1536-well plates (Grenier) and 23 nL compound was added by a pin tool. Four microliters of infected erythrocytes (2% hematocrit, 0.1% parasitemia final concentration) in culture medium were dispensed and the plates incubated for 48 hours at 37 C in 5% CO2. Two microliters of luciferase detection reagent was added and luminescence was detected by a ViewLux (PerkinElmer) reader.
# On the % scale 0 is the no-effect control and ±100 the full control effect; potency means the concentration at half of the fitted maximal effect.
Compound,"activity change, negative = inhibition",Potency
O=[N+]([O-])c1ccc(OP2(=O)COCCO2)cc1 (stereo not given),inactive: 36.5%,
CN(C)CCOC(=O)C(O)(c1ccccc1)C1CCCCC1 (stereo not given),inactive: 33.9%,
CN(C)C1(CNC(=O)c2ccc(Cl)c(S(N)(=O)=O)c2)CCCCC1,inactive: 25.8%,
O=C(OCCN1CCN(CCOCc2ccccc2)CC1)C(O)(c1ccccc1)c1ccccc1,inactive: -13.2%,
CN(C)CCOC(=O)C(O)(c1ccccc1)C1CCCC1 (stereo not given),inactive: 53.2%,
O=C(OCCCN1CCCC1)C(O)(c1ccccc1)C1CCCCC1 (stereo not given),inactive: -18.6%,
CP(=O)(OC12CC3CC(CC(C3)C1)C2)OC12CC3CC(CC(C3)C1)C2,,active: 6.57 µM
C=C(C=O)CC1CC(O)[C@]2(C)OC3C[C@@H]4OC5C[C@]6(C)O[C@]7(C)CCC8OC9C[C@]%10(C)OC(/C(C)=C\CO)C(O)CC%10OC9CC(C)C8OC7CC6O[C@]5(C)C/C=C\C4OC3CC2O1 (stereo not given in full),,active: 10.4 µM
CCN(CC)CCCOC(=O)C(O)(c1ccccc1)c1ccccc1,inactive: -3.09%,
CN(C)C1(CNC(=O)c2ccc(S(C)(=O)=O)cc2)CCCCC1,inactive: 30.8%,
